Legend:
[1] = target: MBP.NS1 H5N1B (ESEV) (influenza A H5N1) (UniProt Q6DP28); assay: G assay titration
[2] = target: MBP.NS1 H5N1B (ESEV) (influenza A H5N1) (UniProt Q6DP28); assay: direct binding assay titration
[3] = target: MBP.NS1 H5N1B (ESEV) (influenza A H5N1) (UniProt Q6DP28); assay: titration, direct binding sandwich assay

| Substance | EC50 [1] [µg/mL] | EC50 [2] [µg/mL] | EC50 [3] [µg/mL] |
| --- | --- | --- | --- |
| DLG1 d1,2 (from UniProt Q12959 218-410) | 0.2 | 0.4 |  |
| PSD95 d1,2,3 (from UniProt P78352 59-402) | 0.3 | 0.3 | 0.29 |
